Values quoted from earlier work, collected in patent US9408846B2, “Formulations and methods for delaying onset of chronic neuropathic pain” (dated 2016).

Test system: sciatic nerve
Details: without epinephrine, most effective doses

## NC1=N[C@H](O)[C@H]2[C@H]3O[C@]4(O)O[C@@H]([C@@H](O)[C@@]2(N1)[C@@H]4O)[C@]3(O)CO
  toxicity with sciatic nerve block: considerable toxicity
